Measured values from several laboratories, pooled; numbers as filed in NIAID ChemDB.

Shared fields: tests on isolated targets; agent: Hepatitis C virus; measure: IC50

a–b is a range or a potency band.

| compound | protein | result |
|---|---|---|
| CC[C@H](C)[C@H](NC(=O)[C@@H](NC(=O)[C@H](CCC(=O)O)NC(=O)[C@H](CC(=O)O)NC(C)=O)C(c1ccccc1)c1ccccc1)C(=O)N[C@@H](CC1CCCCC1)C(=O)N[C@@H](CS)C(=O)O | HCV NS3 protease | 0.06 µM |
| C=C[C@H]1CC1(NC(=O)[C@@H]1C[C@@H](Oc2nc(-c3ccccc3)nc3ccccc23)CN1C(=O)[C@@H](Nc1ccc(C(=O)OC)cc1)C1CCCCC1)C(=O)O | HCV NS3/NS4A protease | 1.2 µM |
| COc1ccc(OC)c(COC(=O)Nc2ccsc2-c2nc(C(=O)O)c(O)c(=O)[nH]2)c1 | HCV polymerase | <25 µM |
| CCC1CC1(NC(=O)[C@@H]1C[C@@H](OCc2cccc3ccccc23)CN1C(=O)[C@@H](NC(=O)OC(C)(C)C)C1CCCCC1)C(=O)O | HCV NS3/NS4A protease | 15 µM |
| CCc1ccc(-c2cc(N(C(=O)c3ccc(C)cc3O)C(C)C)c(C(=O)O)s2)cc1 | NS3 ATPase | <5 µM |
| Cc1ccc(CNC(=O)Nc2cccc(-c3nc(C(=O)O)c(O)c(=O)[nH]3)c2)cc1 | HCV polymerase | <100 µM |
| Cc1cccc(-c2cc(N(C(=O)c3ccc(C)cc3O)C(C)C)c(C(=O)O)s2)c1 | NS3 ATPase | <5 µM |
| CSCC[C@H](NC(=O)CCC(=O)O)C(=O)N[C@@H](CCC(=O)O)C(=O)N[C@@H](CCC(=O)O)C(=O)N[C@@H](CS)C(=O)O | HCV NS3 protease | 77 µM |
| O=C(O)c1sc(-c2ccccc2)cc1N(Cc1ccc(-c2cc3ccccc3o2)s1)C(=O)c1ccc(Cl)cc1Cl | NS3 ATPase | 5–20 µM |
| CC(=O)N[C@@H](CC(=O)O)C(=O)N[C@H](CCC(=O)O)C(=O)N[C@@H](CC(C)C)C(=O)N[C@@H](CCC(=O)O)C(=O)N[C@@H](CC1CCCCC1)C(=O)N[C@@H](CS)C(=O)O | HCV NS3 protease | 0.045 µM |
| Cc1ccccc1S(=O)(=O)Nc1cc(C#C[Si](C)(C)C)sc1C(=O)O | NS3 ATPase | <5 µM |
| C=C[C@H]1CC1(NC(=O)[C@@H]1C[C@@H](Oc2nc(-c3ccccc3)nc3ccccc23)CN1C(=O)[C@@H](Nc1ccc(C(=O)O)cc1)C1CCCCC1)C(=O)O | HCV NS3/NS4A protease | 0.65 µM |
| O=C(Nc1ccsc1-c1nc(C(=O)O)c(O)c(=O)[nH]1)OCc1ccccc1-c1ccccc1 | HCV polymerase | <25 µM |
| CC(=O)N[C@@H](CC(=O)O)C(=O)N[C@H](Cc1ccccc1)C(=O)N[C@@H](CC(C)C)C(=O)N[C@@H](CCC(=O)O)C(=O)N[C@@H](CC1CCCCC1)C(=O)N[C@@H](CS)C(=O)O | HCV NS3 protease | 0.82 µM |
| Nc1ccsc1-c1nc(C(=O)O)c(O)c(=O)[nH]1 | HCV polymerase | <25 µM |
| C=C[C@H]1CC1(NC(=O)[C@@H]1C[C@@H](Oc2cc(-c3ccccc3)nc3ccccc23)CN1C(=O)[C@H](C(C)C)N(C)c1ccccc1)C(=O)O | HCV NS3/NS4A protease | 0.31 µM |
| Cc1ccc(S(=O)(=O)Nc2cc(-c3ccc(F)cc3)sc2C(=O)O)cc1 | NS3 ATPase | <5 µM |
| O=C(O)c1cccc(-c2nc(C(=O)O)c(O)c(=O)[nH]2)c1 | HCV polymerase | <100 µM |
| C=C[C@H]1CC1(NC(=O)[C@@H]1C[C@@H](Oc2ccnc3ccccc23)CN1C(=O)CNC(=O)OC(C)(C)C)C(=O)O | HCV NS3/NS4A protease | 6.2 µM |
| CC(=O)N[C@@H](CC(=O)O)C(=O)N[C@@H](CCC(=O)O)C(=O)N[C@@H](Cc1ccccc1)C(=O)N[C@@H](CCC(=O)O)C(=O)N[C@@H](CC1CCCCC1)C(=O)N[C@@H](CS)C(=O)O | HCV NS3 protease | 0.42 µM |
| CCOc1ccccc1COC(=O)Nc1ccsc1-c1nc(C(=O)O)c(O)c(=O)[nH]1 | HCV polymerase | <25 µM |
| CC(=O)c1ccc(-c2cc(NS(=O)(=O)c3ccccc3C)c(C(=O)O)s2)cc1 | NS3 ATPase | <5 µM |
| CC(=O)N[C@@H](CC(=O)O)C(=O)N[C@@H](Cc1ccc(O)cc1)C(=O)N[C@@H](CC(C)C)C(=O)N[C@@H](CCC(=O)O)C(=O)N[C@@H](CC1CCCCC1)C(=O)N[C@@H](CS)C(=O)O | HCV NS3 protease | 0.135 µM |
| Cc1ccccc1C(=O)N(C)c1cc(-c2ccccc2)sc1C(=O)O | NS3 ATPase | >20 µM |
| CC(=O)N[C@@H](CCC(=O)O)C(=O)N[C@@H](CC(=O)O)C(=O)N[C@H](C(=O)N[C@H](C(=O)N[C@@H](CS)C(=O)N[C@@H](CS)C(=O)O)C(C)C)C(C)C | HCV NS3 protease | 5.3 µM |
| CC(C)[C@H](NC(=O)OC(C)(C)C)C(=O)N1C[C@H](Oc2ccnc3cc(Cl)ccc23)C[C@H]1C(=O)NC1(C(=O)O)CC1 | HCV NS3/NS4A protease | 9.7 µM |
| O=C(O)c1nc(-c2cccc(OCc3ccc(Cl)s3)c2)[nH]c(=O)c1O | HCV polymerase | <100 µM |
| Cc1cccc(S(=O)(=O)Nc2cc(-c3ccccc3)sc2C(=O)O)c1 | NS3 ATPase | 5–20 µM |
| C=CC[C@H](NC(=O)OC(C)(C)C)C(=O)Nc1ccsc1-c1nc(C(=O)O)c(O)c(=O)[nH]1 | HCV polymerase | <25 µM |
| CC(=O)N[C@@H](CC(=O)O)C(=O)N[C@@H](CCC(=O)O)C(=O)N[C@@H](CC(C)C)C(=O)N[C@@H](CCC(=O)O)C(=O)N[C@@H](CC1CCCCC1)C(=O)N[C@@H](CS)C(=O)O | HCV NS3 protease | 0.118 µM |
| O=C(Cc1cc(F)cc(F)c1)Nc1ccsc1-c1nc(C(=O)O)c(O)c(=O)[nH]1 | HCV polymerase | <25 µM |
| CC1CCC(C(=O)N(c2cc(-c3ccccc3)sc2C(=O)O)C2CCOCC2)CC1 | NS3 ATPase | <5 µM |

A second listing of 3 rows from above:

| compound | protein | result |
|---|---|---|
| Cc1cccc(S(=O)(=O)Nc2cc(-c3ccccc3)sc2C(=O)O)c1 | NS3 ATPase | 5–20 µM |
| CC[C@H](C)[C@H](NC(=O)[C@@H](NC(=O)[C@H](CCC(=O)O)NC(=O)[C@H](CC(=O)O)NC(C)=O)C(c1ccccc1)c1ccccc1)C(=O)N[C@@H](CC1CCCCC1)C(=O)N[C@@H](CS)C(=O)O | HCV NS3 protease | 0.06 µM |
| C=C[C@H]1CC1(NC(=O)[C@@H]1C[C@@H](Oc2ccnc3ccccc23)CN1C(=O)CNC(=O)OC(C)(C)C)C(=O)O | HCV NS3/NS4A protease | 6.2 µM |

ICn: concentration for n% inhibition. Rows are shuffled and stem from different studies.